Amino acid sequences for entries named in this document (tags omitted). A change or cut given only in a name is not applied to a line headed by its entry.
UniProt O14746: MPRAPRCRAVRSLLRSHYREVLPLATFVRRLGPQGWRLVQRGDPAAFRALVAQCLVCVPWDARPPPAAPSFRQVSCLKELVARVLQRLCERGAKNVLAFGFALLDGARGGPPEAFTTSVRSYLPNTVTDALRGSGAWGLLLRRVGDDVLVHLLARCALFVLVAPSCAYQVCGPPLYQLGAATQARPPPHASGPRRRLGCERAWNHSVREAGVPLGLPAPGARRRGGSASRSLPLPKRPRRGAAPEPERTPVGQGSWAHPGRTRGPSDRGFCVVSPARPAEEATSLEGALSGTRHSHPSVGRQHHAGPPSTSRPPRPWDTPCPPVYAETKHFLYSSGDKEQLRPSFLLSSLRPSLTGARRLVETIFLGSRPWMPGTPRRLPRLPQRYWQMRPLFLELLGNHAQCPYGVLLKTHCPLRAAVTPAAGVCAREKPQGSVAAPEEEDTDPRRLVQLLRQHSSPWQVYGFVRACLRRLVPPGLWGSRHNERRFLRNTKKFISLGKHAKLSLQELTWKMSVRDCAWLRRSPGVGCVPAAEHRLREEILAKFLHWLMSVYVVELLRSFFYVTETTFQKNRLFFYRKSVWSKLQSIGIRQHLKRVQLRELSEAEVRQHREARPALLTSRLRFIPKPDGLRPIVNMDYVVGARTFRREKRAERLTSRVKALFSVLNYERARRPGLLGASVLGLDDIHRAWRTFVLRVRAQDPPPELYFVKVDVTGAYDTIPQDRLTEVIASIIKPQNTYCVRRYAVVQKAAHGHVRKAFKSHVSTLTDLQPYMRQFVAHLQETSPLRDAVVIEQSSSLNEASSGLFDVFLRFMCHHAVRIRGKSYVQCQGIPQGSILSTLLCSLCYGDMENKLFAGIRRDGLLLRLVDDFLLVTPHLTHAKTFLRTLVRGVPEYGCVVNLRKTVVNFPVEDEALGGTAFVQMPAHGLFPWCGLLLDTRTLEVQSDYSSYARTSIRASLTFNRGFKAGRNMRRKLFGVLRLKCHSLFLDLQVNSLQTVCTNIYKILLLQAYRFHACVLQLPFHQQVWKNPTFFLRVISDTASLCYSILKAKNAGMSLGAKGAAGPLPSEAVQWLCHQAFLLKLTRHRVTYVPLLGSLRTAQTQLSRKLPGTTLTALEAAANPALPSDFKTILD

In publication PMC7253625, “A Telomerase-Derived Peptide Exerts an Anti-Hepatitis B Virus Effect via Mitochondrial DNA Stress-Dependent Type I Interferon Production” (Frontiers in Immunology, 2020):

Tested on: HepG2-2.15 cells
Experiment: Confocal microscopy of FITC-labeled peptide (intracellular location)
Format: cell-based, human
Conditions: GV1001-FITC

“GV1001-FITC: Fluorescein isothiocyanate (FITC)-labeled GV1001 peptide (EARPALLTSRLRFIPK; FITC label; UniProt O14746 611-626, looked up, fragment)” was tested, and the “intracellular location of peptide” value (with Bafilomycin A1 (100 nM)) was “not diffused to the cytosolic space” and the “intracellular location of peptide” value (without Bafilomycin A1) was “diffused or released throughout the cytosolic space”.
